The structures appear in SMILES notation.

This is an account of results in article PMC8386730, “Pyrrolidine-based 3-deoxysphingosylphosphorylcholine analogs as possible candidates against neglected tropical diseases (NTDs): identification of hit compounds towards development of potential treatment of Leishmania donovani” (Journal of Enzyme Inhibition and Medicinal Chemistry, 2021).

For data set [1], the system named is HEK293T cells. The data set is described as follows: Cytotoxicity against HEK293T cells (resazurin). In kind it is cell-based, human. The following applies: CC50 HEK293T divided by IC50 intracellular L. donovani. The text has this:
As the extracellular promastigotes form represents the insect stage of the parasite, assessment of activity is needed to confirm activity against the intracellular amastigotes form, which is the human host form (mammalian host form). In addition, a preliminary assessment of selectivity and safety might be desirable to evaluate the quality of hit compounds. Accordingly, compound 1e and its enantiomer; 1a, in parallel with standard drugs miltefosine and erufosine were submitted for evaluation in intracellular amastigotes model using infected THP-1 cells; human monocytic cell line derived from an acute monocytic leukaemia. In addition, cytotoxicity of tested compounds and standards were evaluated against THP-1 cells and normal human embryonic kidney cells; HEK293T to evaluate selectivity and safety. Cytotoxicity against HEK293T cell growth was assayed by measuring the conversion of resazurin to resorufin. The assays were performed in 384-well plates that were seeded with HEK293T cells (1000 cells per well). After seeding, the cells were exposed to the compounds for 3 days. Resazurin sodium salt (200 µM; R7017; Sigma-Aldrich, St. Louis, MO, USA) was then added, and the samples were incubated for 5 h. After incubation, the […] were fixed using 4% paraformaldehyde, and the plates were analysed using a Victor3TM plate reader (PerkinElmer, Inc., Waltham, MA, USA) at 590 nm (emission) and 530 nm (excitation). Miltefosine and saponin were used as the reference drugs for the HEK293T growth inhibition.
(The colour change of resazurin is a common sign of viable cells or microbes.)

Data set [2] deals with L. donovani promastigotes. Nature of the data set: Growth inhibition of L. donovani promastigotes (resazurin-based assay). Format: cell-based, Leishmania donovani. As to conditions: enantiomers 1e/1a. As to the method: Out of 20 known Leishmania species pathogenic to humans, L. donovani, which causes visceral leishmaniasis, is the most fatal. Consequently, an in vitro model of L. donovani promastigotes[26] was selected to evaluate the activity of the synthesised pyrrolidine-based 3-deoxysphingosylphosphorylcholine analogs 1e–i, 2a–f, 3a–f at two concentration (50 and 25 µM) employing miltefosine and erufosine (ErPC; erucylphosphocholine) as reference standards using a resazurin-based assay.
For comparison, erufosine and miltefosine were used as reference standards.
L. donovani MHOM/SD/62/1S-CL2D parasites were cultured as promastigotes at 28 °C in M199 medium (Sigma-Aldrich, St. Louis, MO, USA) with 40 mM HEPES, 0.1 mM adenine, 0.0001% biotin, and 4.62 mM NaHCO3 supplemented with 10% foetal bovine serum (FBS, Gibco, Carlsbad, CA, USA), […] penicillin (Gibco), and 100 µg/mL streptomycin (Gibco). Parasites were sub-cultured every 3 or 4 days and maintained for 10 passages.
The plates were analysed using a Victor3TM plate reader (PerkinElmer, Inc., Waltham, MA, USA) at 590 nm (emission) and 530 nm (excitation). Miltefosine and erufosine were used as the reference standards. All measured and calculated values are the averages of duplicates. The dose-response curves were generated by GraphPad Prism 6 software using a sigmoidal dose-response equation with a variable hill slope option.

The compound `CCCCCCCCCCCCCCCC(=O)N1CCC[C@@H]1COP(=O)([O-])OCC[N+](C)(C)C` [Compound 1a] yielded a Safety index in data set [1] of 2.7. In data set [2], the Eudismic ratio turned out to be 0.54.
In the case of `CCCCCCCCCCCCCCCC(=O)N1CCC[C@H]1COP(=O)([O-])OCC[N+](C)(C)C` [Compound 1e], in data set [1], the Safety index was found to be 3.2. For the same compound, in data set [2], the Eudismic ratio was 0.54.
Compound `CCCCCCCC/C=C\CCCCCCCCCCCCOP(=O)([O-])OCC[N+](C)(C)C` [Erufosine, erucylphosphocholine, reference compound] came in with a Safety index in data set [1] of 11.3.
Take `CCCCCCCCCCCCCCCCOP(=O)([O-])OCC[N+](C)(C)C` [Miltefosine, miltefosine, reference compound]: the Safety index in data set [1] is listed as over 78.4.
